These results are taken from paper PMC10385049, “cCPE Fusion Proteins as Molecular Probes to Detect Claudins and Tight Junction Dysregulation in Gastrointestinal Cell Lines, Tissue Explants and Patient-Derived Organoids” (2023).

The target of experiment [1] is non-junctional claudins in rat colon mucosa (ex vivo, Ussing chamber) (rat (endogenous in colon tissue)). The experiment can be described thus: immunostaining of cells or tissue.
The target of experiment [2] is claudins in human colon polyps (colorectal adenoma biopsies) (human (endogenous in colon adenoma tissue)). The experiment can be described thus: immunostaining of cells or tissue.

For “Alexa Fluor647-conjugated GST-cCPE-SSS (domain or fragment)”, in experiment [1], the cCPE signal relative to DAPI, normalized to cCPE-YL (relative intensity (cCPE-YL = 1)) is 8.51.

Regarding GST-cCPE-SSS (domain or fragment), the cCPE signal relative to DAPI, normalized to cCPE-YL (relative intensity (cCPE-YL = 1)) in experiment [2] worked out at 12.1.
